The list shows a part of the results, in another mix than the full data. A structure can be active in one record and inactive in another. The source made the active and inactive calls. Rule as the data show it: active = growth inhibition above about 70%; inactive = the rest.
Experiments:
[1] = NCI Yeast Anticancer Drug Screen. Data for the cln2 rad14 strain (AID 165);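 also: 0% = growth equal to vehicle treated cultures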; settings: S. cerevisiae cln2 rad14 strain, stronger effect = higher value
[2] = NCI Yeast Anticancer Drug Screen. Data for the bub3 strain (AID 167); settings: S. cerevisiae bub3 mutant strain, stronger effect = higher value
[3] = NCI Yeast Anticancer Drug Screen. Data for the mlh1 rad18 strain (AID 175); settings: S. cerevisiae mlh1 rad18 strain growth inhibition, stronger effect = higher value
[4] = at 5.0 µM (retest, dose inferred, filed as 0.5)
[5] = at 50.0 µM (retest, dose inferred, filed as 5.0)

Measured: growth inhibition

NP(=O)(O)N(CCCl)CCCl
inactive: [1]; [4] 2% | [1]; at 50.0 µM 26.3% | [2]; [4] 1% | [2]; [5] 44% | [2]; at 50.0 µM 51.3% | [3]; [4] -2% | [3]; [5] 30% | [3]; at 50.0 µM 18.2%

From PubChem BioAssay (NCI)
